# Source: PubChem BioAssay AID602346 (Broad Institute, 2012)
# This is a selection; strong and weak results do not stand in their true shares. Active and inactive are the calls of the source. Cut-off read from the data, not from the text of the source: active = inhibition above about 50% (passing the limit was not always enough); inconclusive = no clear call, values can overlap the other calls; inactive = below about 31%.
# Assay: HIV Vif self-association inhibitors, primary screen, imaging, HEK293T, single point (AID 602346)
# Settings: HEK293T cells, Vif self-association by quenched fluorescence, 24 h, at 7.49 µM, active compounds read high
row,SMILES,inhibition
1,O=C(NCC1(N2CCCCC2)CCCCC1)c1ccc(=O)[nH]c1,inactive: -0.603%
2,CCCCn1nnnc1C(c1cccs1)N1CCC(n2c(=O)[nH]c3ccccc32)CC1 (stereo unspecified),inactive: -3.88%
3,O=C(NCC1(N2CCCCC2)CCCCC1)c1cccs1,inactive: 2.79%
4,O=C(OC1CN2CCC1CC2)C1c2ccccc2Oc2ccccc21 (stereo unspecified),inactive: -7.35%
5,N#CC1(Nc2ccccc2)CCN(Cc2ccccc2)CC1,inactive: 1.05%
6,O=C(NCC1(N2CCCCC2)CCCCC1)c1ccc(Cl)s1,inactive: -1.05%
7,COc1ccc(Cl)cc1C(=O)NCC1(N2CCOCC2)CCCCC1,inactive: -2.63%
8,CCOC(=O)N1CCC(Nc2ccc(OC)cc2)CC1,inactive: -13.1%
9,CCCCn1nnnc1C(c1ccc(OC)cc1)N1CCC(n2c(=O)[nH]c3ccccc32)CC1 (stereo unspecified),inactive: -2.95%
10,Cc1cc(C)cc(N(C(=O)c2ccccc2)C2CCN(C(=O)OC(C)(C)C)CC2)c1,inactive: -14.7%
11,O=C(NCC1(N2CCOCC2)CCCCC1)c1cc2ccccc2o1,inactive: -3.81%
12,O=C(NCC1(N2CCCCC2)CCCCC1)c1ccc(F)cc1,inactive: 12.3%
13,O=P1(N(CCCl)CCCl)SCCCS1,inactive: 2.33%
14,CCCCn1nnnc1C(c1cc2ccccc2o1)N1CCC(n2c(=O)[nH]c3ccccc32)CC1 (stereo unspecified),inactive: -0.662%
15,CCCCOc1ccc(C(=O)NCC2(N3CCOCC3)CCCCC2)cc1,inactive: -2.6%
16,CCOC(=O)N1CCC(Nc2ccc(F)cc2)CC1,inactive: -4.52%
17,O=C1CCN(Cc2ccccc2)CC1,inactive: 7.28%
18,CCOc1ccc(C)cc1CN(CCCl)CCCl,inactive: 2.46%
19,COc1cc(C(=O)NCC2(N(C)C)CCCCC2)ccc1OC(F)F,inactive: 0.787%
20,CCOC(=O)N1CCC(Nc2cccc(C)c2)CC1,inactive: 2.94%
21,O=c1[nH]c2ccccc2n1C1CCN(C(c2cccc3ccccc23)c2nnnn2C2CCCC2)CC1 (stereo unspecified),inactive: 3.45%
